Earlier results on 1 compound are cited in patent US6270957A, “Non-Imuunosuppressive cyclosporins and their use in the prevention and treatment of HIV infection” (Wisconsin Alumni Research Foundation, priority 1999, dated 2001).

Structures are written as SMILES.

The data set deals with HIV protease (Human immunodeficiency virus type 1 group M subtype B, UniProt P04585). The settings on record: read-out: Ki against HIV protease; parent inhibitor of another company, for comparison; cited from earlier work.

For `CC(C)(C)c1ccccc1Sc1c(O)cc(-c2ccccc2)oc1=O`, the Ki is 7.3 nM.
